Measured values published in PubChem BioAssay AID2315 (National Center for Advancing Translational Sciences (NCATS), 2010).
The entries are a selection whose mix differs from that of the whole data set. The source made the active and inactive calls. Rule as the data show it: active = inhibition mostly above about 28% (no sharp cut-off); inactive = mostly below about 43%.

Test: A qHTS for Small Molecule Inhibitors of Shiga Toxin; also: 0% is about no effect
Details: Vero cells, Shiga toxin protein synthesis inhibition reporter; at 38.7 µM, hits give high values

Compound	inhibition
COc1ccccc1OP(C)(=O)Nc1ccc(C)cc1 (centres undefined)	inactive: 2.35%
Cc1ccc(NP(C)(=O)Oc2ccccc2)c(C)c1 (centres undefined)	inactive: 25.8%
CCOC(=O)c1ccc(NP(C)(=O)Oc2ccccc2)cc1 (centres undefined)	inactive: 10.1%
CCN(CC)CCCOC(=O)C(O)(c1ccccc1)c1ccccc1	inactive: 1.29%
CCc1ccc(OP(C)(=O)N2CCN(c3ccc([N+](=O)[O-])cc3)CC2)cc1 (centres undefined)	inactive: -14.9%
CP(=O)(NC(=O)Nc1ccccc1)Oc1ccccc1 (centres undefined)	inactive: -24.8%
Cc1cc(C)cc(OP(C)(=O)Nc2ccc(SC(F)(F)F)cc2)c1 (centres undefined)	inactive: 5.56%
CP(=O)(Nc1ccc(SC(F)(F)F)cc1)Oc1ccc(Cl)cc1 (centres undefined)	inactive: 18.6%
Cc1cccc(C)c1OP(C)(=O)Nc1ccc(SC(F)(F)F)cc1 (centres undefined)	inactive: 7.52%
CP(=O)(Oc1ccccc1)OC(c1ccccc1)C(F)(F)F (centres undefined)	inactive: -1.83%
CP(=O)(Nc1ccccn1)Oc1ccc(Cl)cc1 (centres undefined)	inactive: -6.96%
CCOC(=O)c1ccc(NP(C)(=O)Oc2ccc(OC)cc2)cc1 (centres undefined)	inactive: -9.67%
CCOP(C)(=S)SCC(=O)NC(C)C(=O)O (centres undefined)	inactive: 13.4%
CP(=O)(Nc1ccccc1Br)Oc1ccccc1 (centres undefined)	inactive: 10.3%
COc1ccccc1OP(C)(=O)Nc1ccccc1 (centres undefined)	inactive: -9.3%
CP(=S)(Nn1cnnc1)Oc1ccccc1 (centres undefined)	inactive: -8.9%
O=[N+]([O-])c1cc([N+](=O)[O-])c(Nc2nnnn2CCO)c([N+](=O)[O-])c1	inactive: -9.08%

Compound	inhibition
CP(=O)(Nc1ccc(SC(F)(F)F)cc1)Oc1ccccc1 (centres undefined)	inactive: 0.722%
CCCOc1ccc(NP(C)(=O)Oc2ccc(Cl)cc2)cc1 (centres undefined)	inactive: -2.96%
CN1CCCCC1COC(=O)C1(O)c2ccccc2CCc2ccccc21 (centres undefined)	inactive: -14.9%
COc1ccccc1OP(C)(=O)Nc1c(C)cccc1C (centres undefined)	inactive: -17.2%
CC(C)N(CCCl)C(C)C	inactive: 26.5%
O=[N+]([O-])c1cc([N+](=O)[O-])c(-n2nnc3ccccc32)c([N+](=O)[O-])c1	inactive: -12.8%
Cc1nc2ccc3ccccc3c2s1.O=[N+]([O-])c1cc([N+](=O)[O-])c(O)c([N+](=O)[O-])c1	inactive: 7.93%
CCOC(=O)c1ccc(NP(C)(=O)Oc2cc(C)cc(C)c2)cc1 (centres undefined)	inactive: -6.07%
Cc1cc(C)cc(OP(C)(=O)Nc2ccc(C)cc2C)c1 (centres undefined)	inactive: -5.57%
COc1ccccc1OP(C)(=O)Nc1cccc(Br)c1 (centres undefined)	inactive: -3.62%
Cc1ccc(C)c(NP(C)(=O)Oc2ccccc2)c1 (centres undefined)	inactive: -4.44%
CP(=O)(Nc1cccc(Br)c1)Oc1ccccc1 (centres undefined)	inactive: -8.73%
Cc1cc(C)cc(OP(C)(=O)Nc2ccccn2)c1 (centres undefined)	inactive: -3.06%
Cc1ccc(NCCc2c([N+](=O)[O-])cc([N+](=O)[O-])cc2[N+](=O)[O-])cc1	inactive: 10.3%
CS(=O)(=O)c1cc([N+](=O)[O-])c2no[n+]([O-])c2c1	inactive: 9.18%
CC1=NCCc2c1[nH]c1ccccc21.O=[N+]([O-])c1cc([N+](=O)[O-])c(O)c([N+](=O)[O-])c1	inactive: -11.1%
O=[N+]([O-])OCC(CO[N+](=O)[O-])(CO[N+](=O)[O-])CO[N+](=O)[O-]	inactive: 16.3%
